Measured values from several laboratories, pooled; numbers as filed in NIAID ChemDB.

Shared fields: growth or infection tests; species: Adenovirus

ECn is the concentration giving n% inhibition of infection, replication or growth. Percent inhibition refers to the dose given; in toxicity tests it is the harm to the cells. An empty or dashed field is not shown. Conditions beyond the fields shown may differ between rows.

structure	strain or isolate	cells	method	measure	dose	result
Cc1ccc(S(=O)(=O)O)cc1.N/C(=N\N=C\c1cc(Br)cc(Br)c1O)NO	ATCC (TYPE 8)	A549	plaque count	EC50	-	4.2 µM
Cc1cc(-c2ccc(N=Nc3ccc4c(S(=O)(=O)O)cc(S(=O)(=O)O)c(N)c4c3O)c(C)c2)ccc1N=Nc1ccc2c(S(=O)(=O)O)cc(S(=O)(=O)O)c(N)c2c1O	TYPE 3	Human amnion AV3 cells	cytopathic effect	inhibition	50 µg/mL	0%
CSc1nsc(-c2c(Cl)cccc2Cl)c1C#N	TYPE 2	HEP-2	plaque count	EC50	-	>5 µM
O=S(=O)([O-])c1ccc(NS(=O)(=O)c2ccccc2)c2c(S(=O)(=O)[O-])cccc12	TYPE 3	Human embryonic lung cells	cytopathic effect	inhibition	50 µg/mL	0%
Nc1cnn([C@@H]2O[C@H](CO)[C@@H](O)[C@H]2O)c(=O)n1	TYPE 5	HEP-2	-	inhibition	0.5 µg/mL	61%
CSc1nsc(-c2ccc(C(F)(F)F)cc2)c1C#N	TYPE 2	HEP-2	plaque count	EC50	-	>14 µM
Nc1ccn(C[C@@H](CO)OCP(=O)(O)O)c(=O)n1	TYPE 4	-	-	MIC	-	3 µg/mL
O=S(=O)(O)c1cc(O)c2c(O)c(N=Nc3ccccc3)c(S(=O)(=O)O)cc2c1	TYPE 3	Human embryonic lung cells	cytopathic effect	inhibition	10 µg/mL	20%
CSc1nsc(SC)c1C#N	TYPE 2	HEP-2	plaque count	EC50	-	>12 µM
O=C(O)c1cc(S(=O)(=O)[O-])ccc1O	TYPE 3	Human amnion AV3 cells	cytopathic effect	inhibition	5 µg/mL	0%
CSc1nsc(-c2ccc(OCc3ccccc3)cc2)c1C#N	TYPE 2	HEP-2	plaque count	EC50	-	>50 µM
CC1(C(=O)O)CCC2(C)CCC3(C)C(=CC(=O)C4C5(C)CCC(OC(=O)C6CCCCC6C(=O)O)C(C)(C)C5CCC43C)C2C1	TYPE 5	-	virus yield	inhibition	50 µM	98%
Nc1nc2c(ccn2[C@@H]2C[C@H](CO)[C@@H](O)[C@H]2O)c(=O)[nH]1	-	-	-	MIC	-	>100 µg/mL
COC(=O)[C@H]1[C@@H]2C[C@@H](O[C@@H]3O[C@H](C)[C@@H](O)[C@H](N)[C@@H]3O)/C=C/C=C/C=C/C=C/C=C/C=C/C=C/[C@H](C)[C@@H](O)[C@H](C)[C@H](C)OC(=O)C[C@H](O)C[C@H](O)[C@@H](O)CC[C@H](O)C[C@H](O)C[C@](O)(C[C@@H]1O)O2	TYPE 4	HFF	plaque count	inhibition	10 µg/mL	3%
Cc1cc(-c2ccc(N=Nc3c(N)c(S(=O)(=O)O)cc4cc(S(=O)(=O)O)ccc34)c(C)c2)ccc1N=Nc1c(N)ccc2cc(S(=O)(=O)O)ccc12	TYPE 3	Human embryonic lung cells	cytopathic effect	inhibition	50 µg/mL	20%
Nc1ncnc2c1ncn2C[C@@H](CO)OCP(=O)(O)O	TYPE 2	-	-	MIC	-	0.3 µg/mL

2 of the rows above, restated:

structure,strain or isolate,cells,method,measure,dose,result
O=C(O)c1cc(S(=O)(=O)[O-])ccc1O,TYPE 3,Human amnion AV3 cells,cytopathic effect,inhibition,5 µg/mL,0%
Nc1cnn([C@@H]2O[C@H](CO)[C@@H](O)[C@H]2O)c(=O)n1,TYPE 5,HEP-2,-,inhibition,0.5 µg/mL,61%